Assay results: article PMC8071314, “Computational Design and Development of Benzodioxane-Benzamides as Potent Inhibitors of FtsZ by Exploring the Hydrophobic Subpocket” (Antibiotics, 2021)

Test system: MRC-5 cells
Test: MTT cytotoxicity assay on MRC-5 cells
Assay type: cell-based, human
Conditions: TD90 and MBC ratio
Experimental: We first determined the minimal inhibitory concentration (MIC), i.e., the lowest compound dose (µM) arresting bacterial growth, and the minimal bactericidal concentration (MBC), i.e., the minimal dose (µM) of the compound required for an irreversible block, even after drug removal. Secondly, the derivatives having the most promising activities vs. MRSA were also tested on human MRC-5 cells, calculating their percentages of cytotoxicity by using the MTT assay. Cells were first incubated with each compound for 24 h, then the derivative was removed, and the cells were overlaid with MTT for an additional 3 h. After that time, DMSO replaced the MTT solution, and after 10 min the absorbance was measured at 570 nm. The percentage of cytotoxicity was defined by the formula [100 − (sample OD/untreated cells OD) × 100]. Table 2 reports TD90, defined as the compound concentration (µM) that reduced viability of MRC-5 cells by 90%. Moreover, we reported the therapeutic index (TI), as TD90 and MBC ratio.
Compounds showing an antibacterial activity at a concentration lower than 10 μg/mL were serially diluted in DMEM and tested for cytotoxicity on MRC-5 cells by the MTT assay (Sigma, St Louis, MO, USA). Protocol was the same previously reported.

Compound	TI (therapeutic index)
Cc1nc(-c2ccc3c(c2)OC(CCOc2ccc(F)c(C(N)=O)c2F)CO3)no1 (stereo not drawn) [Compound 1, 3-[2-(7-(5-methyl-1,2,4-oxadiazol-3-yl)-1,4-benzodioxan-2-yl)ethyloxy]-2,6-difluorobenzamide]	>1591
CCc1nc(-c2ccc3c(c2)OC(CCOc2ccc(F)c(C(N)=O)c2F)CO3)no1 (stereo not drawn) [Compound 2]	3090
CSc1nc(-c2ccc3c(c2)OC(CCOc2ccc(F)c(C(N)=O)c2F)CO3)no1 (stereo not drawn) [Compound 3, 3-[2-(7-(5-methylthio-1,2,4-oxadiazol-3-yl)-1,4-benzodioxan-2-yl)ethyloxy]-2,6-difluorobenzamide]	3034
NC(=O)c1c(F)ccc(OCC2COc3cc4ccccc4cc3O2)c1F (stereo not drawn) [Compound 4, 3-[(2,3-dihydronaphtho[2,3-b][1,4]dioxin-2-yl)methoxy]-2,6-difluorobenzamide]	>320
NC(=O)c1c(F)ccc(OCCC2COc3cc4ccccc4cc3O2)c1F (stereo not drawn) [Compound 5, 3-[2-(2,3-dihydronaphtho[2,3-b][1,4]dioxin-2-yl)ethoxy]-2,6-difluorobenzamide]	360
NC(=O)c1c(F)ccc(OCCCOc2ccc3ccccc3c2)c1F [Compound 6]	>160
NC(=O)c1c(F)ccc(OCC2COc3cc4c(cc3O2)CCCC4)c1F (stereo not drawn) [Compound 7]	15.0
NC(=O)c1c(F)ccc(OCCC2COc3cc4c(cc3O2)CCCC4)c1F (stereo not drawn) [Compound 8, 3-[2-(2,3,6,7,8,9-hexahydronaphtho[2,3-b][1,4]dioxin-2-yl)ethoxy]-2,6-difluorobenzamide]	8200
NC(=O)c1c(F)ccc(OCCC2COc3ccccc3O2)c1F (stereo not drawn) [II, reference compound]	15.2
CSc1nc(-c2ccc3c(c2)OC(COc2ccc(F)c(C(N)=O)c2F)CO3)no1 (stereo not drawn) [V, reference compound]	1231
Cc1nc(-c2ccc3c(c2)OC(COc2ccc(F)c(C(N)=O)c2F)CO3)no1 (stereo not drawn) [VI, reference compound]	>320
CCc1nc(-c2ccc3c(c2)OC(COc2ccc(F)c(C(N)=O)c2F)CO3)no1 (stereo not drawn) [VII, reference compound]	>320
